Laboratory results: patent publication US20240262893A1, “BINDING POLYPEPTIDES AGAINST SARS COV-2 AND USES THEREOF” (APPLIED BIOMEDICAL SCIENCE INSTITUTE, published 2024)

Biological target: parental receptor binding domain (RBD) protein (amino acids 319 to 541 of the spike protein) with c-terminal … (SARS-CoV-2 (Wuhan-Hu-1), UniProt P0DTC2 319-541)
Test: ELISA, RBD coated, IgG detected with anti-human Fc-HRP

B1: R2C3 (R5C1) ultralong CDR3 chimeric bovine-human IgG1 antibody (antibody)
VH: QVQLRESGPSLVKPSQTLSLTCTASGFSLSDKPVGWVRQAPGKPLEWLGSIDTAENTGYNPGLKSRLSITKDNSKSQVSLSLSSVTTEDSATYYCATVHQKTRKEKSCPDGYLYSSNTGRGYDCGVWTCRRVGGEFCSATGDWTSPSEEDFYEFYVDTWGQGAPVTVSS
VL: QAVLNQPSSVSGSLGQRVSITCSGSSSNVGNGYVSWYQLIPGSAPRTLIYGDTSRASGVPDRFSGSRSGNTATLTISSLQAEDEADYFCASAEDSSSNAVFGSGTTLTVL
  binding result: binds
